Compound potency records, mixed from different reports. Data source: NIAID ChemDB in PubChem.

All rows: tests on isolated targets; agent: HIV-1; protein: Reverse transcriptase; read-out: IC50

ICn: concentration for n% inhibition. Two numbers with a dash give a range or band. Rows are shuffled and stem from different studies. An empty or dashed field is not shown.

compound	strain	mutations	method	value
CN(C)c1ccc(O)c2c1C[C@H]1C[C@H]3[C@H](N(C)C)C(=O)C(C(N)=O)=C(O)[C@@]3(O)C(=O)C1=C2O	-	-	nucleotide incorporation	1200 µM
CCN1c2ncc(CCOc3ccc(C(=O)O)c4ccccc34)cc2C(=O)N(C)c2ccc(Cl)nc21	-	RT-V106A	nucleotide incorporation / radiometric	0.1–1 µM
CN(C)[C@@H]1C(=O)C(C(N)=O)=C(O)[C@@]2(O)C(=O)C3=C(O)c4c(O)ccc(Cl)c4[C@@](C)(O)C3C[C@@H]12	-	-	nucleotide incorporation	96 µM
CC1=CC(C2OC(CN3C(=O)CS[C@@H]3C3OC(n4ccc(=O)[nH]c4=O)[C@@H](O)[C@H]3O)[C@@H](O)[C@H]2O)C(=O)NC1=O	-	-	RT activity	12.9 µM
CC1(C)C2=CC(=O)C(O)(c3ccccc3)C(=O)N2c2ccccc21	RF	-	nucleotide incorporation / radiometric	>100 µM
Cc1c(Cc2ccc(F)cc2)nc(SCc2ccc([N+](=O)[O-])cc2)[nH]c1=O	WT	-	nucleotide incorporation / radiometric	>400 µM
C[C@@H]1CN2CCC[C@@H]3CCCCC[C@@H]4C(=O)[C@@H](C)CN5CCC[C@@H](CCCCC[C@@H](C1=O)[C@H]32)[C@H]45	-	-	nucleotide incorporation / radiometric	14.8 µM
C[C@H]1C(=O)Nc2ccc(Cl)cc2N1Cc1ccccc1	-	-	nucleotide incorporation	0.01–0.1 µg/mL
CCC1(c2ccccc2)Cc2ccccc2-n2cccc2C1=O	WT	-	nucleotide incorporation / radiometric	>10 µM
CC1=CC(C2OC(CN3C(=O)CS[C@H]3C3OC(n4cc(C)c(=O)[nH]c4=O)[C@@H](O)[C@H]3O)[C@@H](O)[C@H]2O)C(=O)NC1=O	-	-	RT activity	35.7 µM
COc1ccc2[nH]cc(CCO)c2c1	-	-	-	>8000 µM
CC(=O)O[C@H]1c2c(c3c(c4c(-c5ccccc5)cc(=O)oc24)OC(C)(C)C=C3)O[C@H](C)[C@H]1C	IIIB	-	scintillation proximity / radiometric	0.125 µM
CCN1c2ncc(CCOc3ccc(CCC(=O)O)c4ccccc34)cc2C(=O)N(C)c2ccc(C)nc21	-	RT-V106A	nucleotide incorporation / radiometric	>1 µM
COc1ccc(C(C)=O)c(O)c1[C@H]1C[C@H]1NC(=S)Nc1ccc(Cl)cn1	-	-	ELISA	0.17 µM
Cc1cc(Cl)c2c(c1O)C(=O)C=CC2=O	-	-	RT activity	12.5 µg/mL
COc1ccccc1NCC(=O)Cn1cc([N+](=O)[O-])nc1C	-	-	RT activity / nucleotide incorporation	>100 µM
CC1(C)C2=CC(=O)C(c3ccccc3)C(=O)N2c2ccccc21	RF	-	nucleotide incorporation / radiometric	>100 µM
CCC1(c2cccc(COc3ccccc3)c2)Oc2ccccc2-n2cccc2C1=O	-	RT-K103N	nucleotide incorporation / radiometric	4.9 µM
CCN1c2ncc(CCOc3ccc(C(=O)O)c4ccccc34)cc2C(=O)N(C)c2cccnc21	-	RT-K103N Y181C	nucleotide incorporation / radiometric	0.1–1 µM
NCCc1c[nH]c2ccc(O)cc12	-	-	-	>8000 µM
CO[C@@H]1[C@@H](OC(N)=O)[C@@H](O)[C@H](Oc2ccc3c(O)c(NC(=O)c4ccc(O)c(CC=C(C)C)c4)c(=O)oc3c2C)OC1(C)C	-	-	nucleotide incorporation	520 µM
Cc1cnc([N+](=O)[O-])n1CCC(=O)Nc1cccc(O)c1	-	-	RT activity / nucleotide incorporation	>100 µM
Cc1c(C(C)c2c(F)cccc2F)nc(SC2CCCC2)[nH]c1=O	-	-	nucleotide incorporation	0.005 µM
CC(C)=CCN1Cc2cccc3[nH]c(=S)n(c23)C[C@@H]1C	-	-	nucleotide incorporation	0.14 µM
COC(=O)C(=O)OC1(C(=O)O)C[C@@H](OC(=O)/C=C/c2ccc(O)c(O)c2)C(O)[C@H](OC(=O)/C=C/c2ccc(O)c(O)c2)C1	LAI	-	-	7 µM
C=C(C)OC(=O)N1c2ccc(C)cc2NC(=O)C1(CC)CC	-	-	nucleotide incorporation	0.01–0.1 µg/mL
CC(=O)C1(c2ccccc2)C(=O)C=C2N(C1=O)c1ccc(Cl)cc1C2(C)C	RF	-	nucleotide incorporation / radiometric	10 µM
CCC1(c2cccc(Cl)c2)Oc2ccccc2-n2cccc2C1=O	-	RT-V106A	nucleotide incorporation / radiometric	0.2 µM
Cc1cnc([N+](=O)[O-])n1CC(=O)Nc1cccc(O)c1	-	-	RT activity / nucleotide incorporation	>100 µM
Cc1ccc2c(c1O)C(=O)C=CC2=O	-	-	RT activity	23 µg/mL
Cc1c(Cc2c(F)cccc2F)nc(SCc2ccc(C#N)cc2)[nH]c1=O	-	RT-K103N	nucleotide incorporation / radiometric	>400 µM
CC1=CC(C2O[C@H](CO)C(N3C(=O)CS[C@@H]3C3OC(n4cc(C)c(=O)[nH]c4=O)[C@@H](O)[C@H]3O)[C@H]2O)C(=O)NC1=O	-	-	RT activity	6.5 µM
CCCC(=O)N1c2cc(Cl)ccc2NC(=O)[C@@H]1C	-	-	nucleotide incorporation	1–10 µg/mL
Cc1c(Cc2c(Cl)cccc2Cl)nc(SCc2cccc(C#N)c2)[nH]c1=O	-	RT-K103N	nucleotide incorporation / radiometric	>400 µM
CC(C)=CCN1C(=O)c2cccn2-c2ccc(Cl)cc2S1(=O)=O	IIIB	RT-Y181C	RT activity	>30 µM
CCn1cc(C(=O)O)c(=O)c2ccc(C)nc21	-	-	nucleotide incorporation	1900 µM
Cc1cc(O)c2c(c1Br)C(=O)C=CC2=O	-	-	RT activity	48 µg/mL
CCCCC1C(=O)C=C2N(C1=O)c1ccccc1C2(C)C	RF	-	nucleotide incorporation / radiometric	>100 µM
Cc1c(Cc2c(Cl)cccc2Cl)nc(SCc2ccc(C(C)C)cc2)[nH]c1=O	-	RT-K103N	nucleotide incorporation / radiometric	>400 µM
Cc1cc(O)c2c(c1)C(=O)C=C(c1c(C)cc(O)c3c1C(=O)C=CC3=O)C2=O	-	-	RT activity	>100 µg/mL
O=C(/C=C/c1ccc(O)c(O)c1)O[C@@H]1CC(O)(C(=O)O)C[C@@H](OC(=O)/C=C/c2ccc(O)c(O)c2)C1O	LAI	-	-	107 µM
Cc1cc2c(c(O)c1-c1c(C)cc(O)c3c1C(=O)C=CC3=O)C(=O)C=CC2=O	-	-	RT activity	>100 µg/mL
CCC1(c2ccc(COc3cccnc3)cc2)Oc2ccccc2-n2cccc2C1=O	-	RT-V106A	nucleotide incorporation / radiometric	2.5 µM
C[C@H]1C(=O)Nc2ccc(Cl)cc2N1Cc1ccccn1	-	-	nucleotide incorporation	0.1–1 µg/mL
Cc1c(Cc2c(Cl)cccc2Cl)nc(SCc2cccc(F)c2)[nH]c1=O	-	RT-181I	nucleotide incorporation / radiometric	>400 µM
CCN1c2ncc(CCOc3ccc(C(=O)O)c4ccccc34)cc2C(=O)Nc2c(C)cc(Cl)nc21	-	RT-K103N Y181C	nucleotide incorporation / radiometric	0.1–1 µM
CC(C)=CCN1C(=O)Nc2ccc(Cl)cc2S1(=O)=O	IIIB	RT-Y181C	RT activity	>30 µM
COc1cc(CSc2nc(Cc3c(F)cccc3F)c(C)c(=O)[nH]2)cc(OC)c1	-	RT-181I	nucleotide incorporation / radiometric	>400 µM
CC(C)=CCN1C(C)C(=O)Nc2ccc(Cl)cc2S1(=O)=O	IIIB	-	RT activity	3.3 µM
Cc1ncc([N+](=O)[O-])n1CCOC(c1ccccc1)c1cccs1	-	-	RT activity / nucleotide incorporation	11.9 µM
COc1ccc(CSc2nc(Cc3c(Cl)cccc3Cl)c(C)c(=O)[nH]2)c(OC)c1	-	RT-K103N	nucleotide incorporation / radiometric	>400 µM
CSC[C@H]1C(=S)Nc2ccc(F)cc2N1C(=O)OC(C)C	-	-	nucleotide incorporation	0.01–0.1 µg/mL
Cc1c(Cc2c(Cl)cccc2Cl)nc(SCc2ccc(Br)cc2)[nH]c1=O	-	RT-181I	nucleotide incorporation / radiometric	>400 µM
CCN1c2ncc(CCOc3ccc(CC(N)=O)c4ccccc34)cc2C(=O)N(C)c2cccnc21	-	RT-V106A	nucleotide incorporation / radiometric	0.1–1 µM
N#Cc1ccc(NC(=S)N[C@@H]2[C@@H]3COc4c(F)ccc(F)c4[C@@H]32)nc1	-	Wild type	scintillation proximity / radiometric	0.0057 µM
CCN1c2ncc(CCOc3ccc(CC(C)C(=O)O)c4ccccc34)cc2C(=O)Nc2c(C)cc(Cl)nc21	-	RT-Y188L	nucleotide incorporation / radiometric	>1 µM
COc1cc(C)c(Cl)c2c1C(=O)C=CC2=O	-	-	RT activity	25 µg/mL
CCN1c2ncc(CCOc3ccc(/C(C)=C/C(=O)O)c4ccccc34)cc2C(=O)N(C)c2cccnc21	-	RT-V106A	nucleotide incorporation / radiometric	>1 µM
CO[C@H]1/C=C/O[C@@]2(C)Oc3c(C)c(O)c4c(O)c(cc(O)c4c3C2=O)NC(=O)/C(C)=C\C=C\[C@H](C)[C@H](O)[C@@H](C)[C@@H](O)[C@@H](C)[C@H](OC(C)=O)[C@@H]1C	-	-	nucleotide incorporation	460 µM